Source: paper PMC5686395, “Eukaryotic-type serine/threonine kinase mediated phosphorylation at Thr^169 perturbs mycobacterial guanylate kinase activity” (Bioscience Reports, 2017)

System: Nc1nc2c(ncn2[C@@H]2O[C@H](COP(=O)(O)O)[C@@H](O)[C@H]2O)c(=O)[nH]1
Assay: purified protein
Details: pH 7.5; 30.0 °C

## (Mycobacterium tuberculosis H37Rv)
  Km: 138 ± 23 µM
